Data set [1] has as its system CHO/CYP1A1 cells. In words: Cytotoxicity (MTS assay) in CHO/CYP1A1 cells. Particulars: IC50 in normal CHO cells divided by IC50 in CYP1A1 transfected CHO cells. Format: cell-based, Chinese Hamster. In general terms: Formazan colour is commonly taken as a measure of viable cells.
Data set [2] concerns CHO/CYP1B1 cells. The data set can be described thus: Cytotoxicity (MTS assay) in CHO/CYP1B1 cells. The class given is cell-based, Chinese Hamster. Particulars: IC50 in normal CHO cells divided by IC50 in CYP1B1 transfected CHO cells.

Some results are limits rather than exact numbers.

Regarding `NP(N)(=O)N(CCCl)CCCl`, the “IC50 ratio 72 h (CHO / CHO/CYP1A1)” value in data set [1] was 1.2. In addition, the “IC50 ratio 72 h (CHO / CHO/CYP1B1)” value in data set [2] was less than 1.
For `O=P(O)(NCCBr)NCCBr` the same measures were 1 and 1.25.
